Earlier results, collected in publication PMC5543128.

Test system: nicotinic receptor of skeletal muscles
Conditions: cited from earlier work

Question: With `CC[C@H](C)[C@H](NC(=O)CNC(=O)[C@H](Cc1ccc(O)cc1)NC(=O)[C@@H](N)[C@@H](C)O)C(=O)N[C@@H](Cc1ccc(O)cc1)C(=O)N[C@@H](CC(=O)O)C(=O)N[C@@H](C)C(=O)N[C@@H](CCCCN)C(=O)N1CCC[C@H]1C(=O)N1C[C@H](O)C[C@H]1C(=O)N[C@@H](Cc1ccccc1)C(=O)N[C@@H](CO)C(=O)N[C@H]1CSSC[C@@H](C(=O)N[C@H](C(=O)N[C@@H](CC(C)C)C(=O)N2CCC[C@H]2C(=O)N2C[C@H](O)C[C@H]2C(=O)N[C@@H](CC(N)=O)C(=O)N[C@@H](CC(C)C)C(=O)N[C@@H](CCCNC(=N)N)C(=O)N2C[C@H](O)C[C@H]2C(=O)N[C@@H](CCCCN)C(=O)N[C@@H](Cc2ccccc2)C(=O)N[C@@H](CCCCN)C(=O)N[C@@H](CCC(=O)O)C(N)=O)C(C)C)NC(=O)CNC(=O)CNC(=O)[C@H](CCCNC(=N)N)NC(=O)[C@H](CC(C)C)NC(=O)CNC(=O)[C@H](C)NC1=O` as the compound, how does the potency and selectivity read?
Answer: Its potency and selectivity is “highly potent and selective for the nicotinic receptor of skeletal muscles”.

Only a part of the results on these compounds is given; other tests are left out.
